# Replication capacity of HIV-1 mutants, RT

Data from the supplement of Al-Mawsawi et al. 2014, doi:10.1186/s12977-014-0124-6.

Protein: RT of HIV-1 NL4-3, numbered from its first residue.
Effects on overlapping genes or RNA elements are not listed.

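Random point mutant libraries of HIV-1 NL4-3, one for each of seven fragments, were passaged in CEM T lymphocytes. The RC index is the frequency of a change after passage round 2 divided by its frequency in the plasmid library.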

A higher RC index is a better tolerated change; approximate classes are lethal up to 0.1, attenuated to 0.2, tolerated above.
Substitutions are written as wild-type residue, site number, new residue.
Since each clone held several changes (about five per kb), neutral changes can read low.
Base changes are numbered along pNL4-3.
An index over 1, which the authors read as above wild type, was rare (1.9% of all changes in the genome).

For E53D (base A2708T) the result was 0.0292. For N137D (base A2958G) the result was 0.0628. P52L (base C2704T) gave 0.0572. With P217T (base C3198A) the assay gave 0.0807. E492K (base G4023A) gave 2.22.

With K530I (base A4138T) the assay gave 0.0811. W401S (base G3751C) read 0.0412. T107S (base A2868T) gave 0.0259. For V531D (base T4141A) the result was 0.0359. K263E (base A3336G) read 0.0254.

With V417A (base T3799C) the assay gave 0.140. Q336R (base A3556G) gave 0.0479. With F160S (base T3028C) the assay gave 0.0555. E53D (base A2708C) gave 0.0224. With T369A (base A3654G) the assay gave 0.0466.

With I37M (base T2660G) the assay gave 0.0449. I159M (base A3026G) read 0.0802. With E204G (base A3160G) the assay gave 0.0415. F87C (base T2809G) gave 0.150. P345L (base C3583T) read 0.208.

G231D (base G3241A) read 0.117. I257L (base A3318T) read 0.0300. For W153G (base T3006G) the result was 0.0479. I178M (base A3083G) gave 0.140. For T165A (base A3042G) the result was 0.0735.

With S553G (base A4206G) the assay gave 0.0621. L209V (base C3174G) read 0.0976. Y405H (base T3762C) read 0.121. V8I (base G2571A) gave 0.122. For T403I (base C3757T) the result was 0.163.

H235P (base A3253C) gave 0.0244. I556V (base A4215G) gave 0.0364. For L187W (base T3109G) the result was 0.0427. With K46E (base A2685G) the assay gave 0.0520. T7N (base C2569A) gave 0.0645.

With E6V (base A2566T) the assay gave 0.0495. I47N (base T2689A) read 0.0523. For A62D (base C2734A) the result was 0.126. D186G (base A3106G) read 0.0248. With T409S (base C3775G) the assay gave 0.140.

A288E (base C3412A) read 0.194. Q242H (base G3275T) read 0.0151. Q161K (base C3030A) gave 0.0791. T470A (base A3957G) read 0.0553. E42V (base A2674T) read 0.0243.

I341M (base T3572G) read 0.0564. For I434L (base A3849T) the result was 0.0542. With P19S (base C2604T) the assay gave 0.101. With N545K (base T4184A) the assay gave 0.0400. For L26F (base G2627T) the result was 0.226.

A360S (base G3627T) gave 0.0905. With E248G (base A3292G) the assay gave 0.371. V241G (base T3271G) gave 0.113. S48A (base T2691G) gave 0.0964. For G51E (base G2701A) the result was 0.0770.

With E305V (base A3463T) the assay gave 0.0191. For Q509H (base A4076T) the result was 0.0359. With D186V (base A3106T) the assay gave 0.0502. P52H (base C2704A) gave 0.0726. For D185N (base G3102A) the result was 0.956.

N81K (base T2792A) read 0.0619. W71C (base G2762T) read 0.159. With H208R (base A3172G) the assay gave 0.0351. With A267T (base G3348A) the assay gave 0.312.